# Results from paper PMC10303200 (ACS Central Science, 2023).
# Molecular target: RCA-I (Ricinus communis, UniProt P06750)
# Details: read-out: Kd (ITC)
substance,measurement,value
[β-D-GlcNAc-(1→2)-α-D-Man-(1→3)]-[β-D-GlcNAc-(1→2)-α-D-Man-(1→6)]-β-D-Man(1→4)-β-D-GlcNAc-(1→4)-D-GlcNAc [Glycan G34],Kd,1700 ± 800 nM
